Pooled drug test results. Numbers come from NIAID ChemDB, via PubChem.

Shared fields: whole-cell or culture tests; agent: HIV-2; cells: MT-4; endpoint: EC50

Rows are shuffled and stem from different studies.

compound | strain or isolate | mutations | read by | value
COc1ncccc1C(=O)c1cc(C)cc(C)c1 | ROD |  | MTT | >7.34 µM
Cc1cn([C@@H]2O[C@H](CO[Si](C)(C)C(C)(C)C)C3(OC(=O)N=C3N)[C@H]2O[Si](C)(C)C(C)(C)C)c(=O)[nH]c1=O | ROD |  |  | >35 µM
Cc1c(Cc2cccc3ccccc23)nc(N2CC2)[nH]c1=O | ROD |  | MTT | 351 µM
O=c1[nH]cnc2c1ncn2[C@H]1CC[C@@H](CO)O1 | ROD |  | MTT | 19 µM
CC(C)(C)[Si](C)(C)OC[C@H]1O[C@@H](n2cnc3c(=O)n(CC(=O)O)cnc32)[C@H](O[Si](C)(C)C(C)(C)C)[C@@H]1O | ROD |  | cytopathic effect / trypan blue | 24 µM
O=C1CSC(c2c(F)cccc2Cl)N1Cc1ccco1 | ROD |  | cytopathic effect | 30.5 µM
Cc1cn([C@@H]2O[C@H](CC3CCCCC3)C3(OS(=O)(=O)C=C3N)[C@H]2O[Si](C)(C)C(C)(C)C)c(=O)[nH]c1=O | ROD |  | cytopathic effect / trypan blue | >4 µg/mL
Cc1c(Sc2ccccc2)n(COCCO)c(=O)[nH]c1=O | ROD |  | cytopathic effect / MTT | >405.8 µM
CCN(C)C(=O)Oc1nsnc1-c1c(Cl)cccc1Cl | EHO |  | MTT | >29 µM
NC(=O)c1ncn([C@@H]2O[C@H](CO)[C@@H](O)[C@H]2O)n1 |  |  | cytopathic effect / trypan blue | >500 µM
C=C1C[C@@H](n2cnc3c(=O)[nH]c(N)nc32)[C@@H]1CO | ROD |  | cytopathic effect / MTT | >100 µM
Nc1nc2c(ncn2[C@H]2C[C@H](O)[C@@H](CO)O2)c(=O)[nH]1 |  |  | cytopathic effect / trypan blue | >500 µM
Nc1ncnc2c1ncn2CCOCP(=O)(O)O | LAV-2 |  | cytopathic effect / trypan blue | 5.5 µM
c1cc(CN2CCNCCNCCNCC2)cc(CN2CCNCCNCCNCC2)c1 | GH-1 |  | syncytia | 0.021 µM
Fc1cccc(F)c1C1SCc2nc3ccccc3n21 | ROD |  | cytopathic effect / MTT | >48.6 µM
Cc1cn([C@H]2C[C@H](N=[N+]=[N-])[C@@H](CO)O2)c(=O)[nH]c1=O | ROD |  | cytopathic effect / MTT | 0.0037 µM
CCN[C@H]1CO[C@@H]2OC[C@H](OC(=O)N[C@@H](Cc3cc(F)cc(F)c3)[C@H](O)CN(CC(C)C)S(=O)(=O)c3ccc4nc(NC5CC5)sc4c3)[C@@H]21 | EHO |  | MTT / p24 | 0.00058 µM
Cc1cn([C@@H]2O[C@@H](COC(=O)c3ccccc3)C3(OS(=O)(=O)C=C3N)C2O[Si](C)(C)C(C)(C)C)c(=O)[nH]c1=O | ROD |  | cytopathic effect / trypan blue | >100 µg/mL
Cc1cc(C)cc(C(=O)c2cccnc2Nc2ccc(CC#N)cc2)c1 | ROD |  | MTT | >97.48 µM
C1CNCCNCCCN[C@H]([C@@H]2CNCCCNCCNCCCN2)CNC1 | EHO |  | cytopathic effect / MTT | 0.29 µM
COc1cc(OC)c(C2SCC(=O)N2c2cccc(C)n2)c(OC)c1 | ROD |  | cytopathic effect | 62.4 µM
Nc1nc(NC2CC2)c2ncn([C@H]3C=C[C@@H](CO)C3)c2n1 | ZY |  | cytopathic effect / propidium iodide | 4.1 µM
CC(C)=CCN1Cc2cccc3[nH]c(=S)n(c23)C[C@@H]1C | ROD |  | cytopathic effect / MTT | >350 µM
Cc1cn([C@@H]2O[C@@H](CO[Si](C)(C)C(C)(C)C)C3(OS(=O)(=O)C=C3N)[C@@H]2O[Si](C)(C)C(C)(C)C)c(=O)[nH]c1=O | ROD |  | cytopathic effect / trypan blue | >100 µg/mL
Cc1c(Cc2cccc3ccccc23)nc(NC2CCCCC2)[nH]c1=O | ROD |  | MTT | >42.6 µM
COc1nc(=O)[nH]c2c1C(c1ccc(Br)cc1)c1c(OC)nc(=O)[nH]c1O2 | ROD |  | cytopathic effect | >309 µM
Fc1cccc(Cl)c1C1OCc2nc3ccccc3n21 | ROD |  | cytopathic effect / MTT | >44 µM
CCc1cc(NCc2nc3c(Cl)ccc(Cl)c3o2)c(=O)[nH]c1C | EHO | RT-E219D | cytopathic effect / MTT | 27 µM
Nc1ncnc2c1ncn2[C@H]1C[C@@H](O)[C@@H](CO)O1 |  |  | cytopathic effect / trypan blue | >500 µM
CC(=O)c1ccc(C)cc1NC(C(N)=O)c1c(Cl)cccc1Cl | EHO |  | cytopathic effect / MTT | >137 µM
O=[N+]([O-])c1ccc(-c2nnc(-c3cccnc3)o2)cc1 | ROD |  | MTT | >73.5 µg/mL
CCOCn1c(Cc2ccccc2)c(C(C)C)c(=O)[nH]c1=O | EHO |  | cytopathic effect / MTT | 5.6 µM
Cc1cn([C@H]2C=C[C@@H](COP(=O)(O)N[C@@H](CC(=O)O)C(=O)O)O2)c(=O)[nH]c1=O | ROD |  | MTT | 0.24 µM
COC(=O)Cn1c(=O)c(C)cn([C@H]2C[C@H](N=[N+]=[N-])[C@@H](CO[Si](C)(C)C(C)(C)C)O2)c1=O | ROD |  | cytopathic effect / trypan blue | >10 µM
Cc1cn([C@@H]2O[C@H](C)C3(OS(=O)(=O)C=C3N)[C@H]2O[Si](C)(C)C(C)(C)C)c(=O)[nH]c1=O | ROD |  | cytopathic effect / trypan blue | >100 µg/mL
Cc1cc(C#Cc2ccc(C(F)(F)F)cc2)cc(C)c1Oc1ccnc(Nc2ccc(C#N)cc2)n1 | ROD |  | MTT | >7.353 µM
Cc1cc(C)cc(C(=O)c2cccnc2Nc2ccc(S(C)(=O)=O)cc2)c1 | ROD |  | MTT | >98.17 µM
C1CNCCNCCCNCCNC1 | ROD |  | cytopathic effect / MTT | 150 µM
O=c1[nH]c2c(c(=O)[nH]1)C(c1ccccc1)c1c([nH]c(=O)[nH]c1=O)O2 | ROD |  | cytopathic effect | >383 µM
Cc1cn([C@H]2C[C@H](N=[N+]=[N-])[C@@H](CO)O2)c(=O)[nH]c1=O | ROD |  | cytopathic effect / MTT | 0.0011 µM
COC(=O)C(Cc1ccccc1)NC(=O)[C@@H](NC(=O)[C@@H](C[C@H](O)[C@H](CC1CCCCC1)NC(=O)[C@@H](NC(=O)[C@H](Cc1ccccc1)CS(=O)(=O)C(C)(C)C)C(C)C)C(C)C)C(C)C | EHO | RT-S102L | cytopathic effect / MTT | 13.7 µM
Cc1c(Cc2cccc3ccccc23)nc(NC(C)C)[nH]c1=O | ROD |  | MTT | >54.33 µM
Fc1cccc(F)c1[C@@H]1SCc2nc3ccccc3n21 | ROD |  | cytopathic effect / MTT | >11 µg/mL
C=C1[C@@H](CO)C[C@H]1n1cnc2c(N)ncnc21 | ROD |  | cytopathic effect / MTT | 63 µM
CCc1c(Cc2cc(C)cc(C)c2)nc(SCC(=O)c2ccc(OC)cc2)[nH]c1=O | ROD |  | MTT | 54.78 µM
Nc1nc2c(ncn2CCOCP(=O)(O)O)c(=O)[nH]1 | ROD |  |  | 0.24 µM
N#Cc1ccc(Nc2nccc(C(O)c3ccc4ccccc4c3)n2)cc1 | ROD |  | MTT | >35.5 µM
Nc1nc(N)c2ncn(CC(CF)OCP(=O)(O)O)c2n1 | LAV-2 |  | cytopathic effect / trypan blue | 13 µM
Cc1cn([C@@H]2O[C@H](CO[Si](C)(C)C(C)(C)C)C3(OS(=O)(=O)C=C3N)[C@H]2O[Si](C)(C)C(C)(C)C)c(=O)n(C)c1=O | ROD |  | cytopathic effect | >250 µM
CC(C)(C)[Si](C)(C)OC[C@H]1O[C@@H](n2ccc(=O)n(CC(=O)O)c2=O)[C@H](O)[C@@H]1O[Si](C)(C)C(C)(C)C | ROD |  | cytopathic effect / trypan blue | >10 µM
CC(=O)Oc1ccc(/C=C/C(=O)O[C@@H](C(=O)O)[C@@H](OC(=O)/C=C/c2ccc(OC(C)=O)c(OC(C)=O)c2)C(=O)O)cc1OC(C)=O | ROD |  | cytopathic effect / MTT | 25.5 µM
Nc1ncnc2c1ncn2[C@@H]1C[C@H](CO)[C@H]1CO | ROD |  | cytopathic effect / MTT | 4.4 µM
Nc1ccn([C@H]2CC[C@@H](CO)O2)c(=O)n1 | ROD |  | MTT | 1.56 µM
Cc1ccnc2c1NC(=O)c1cccnc1N2C1CC1 | RES056 |  | MTT | ≥7.59 µM
Nc1nc2c(ncn2CCOCP(=O)(O)O)c(=O)[nH]1 | LAV-2 |  | cytopathic effect / trypan blue | 2.2 µM
CCc1c(Cc2cccc3ccccc23)nc(Nc2ccc(Cl)cc2)[nH]c1=O | ROD |  | MTT | >152.1 µM
Cc1cc(C#N)cc(C)c1Oc1nc(Nc2ccc(C#N)cc2)nc(N)c1Br | ROD |  | MTT | >4.41 µM
Cc1c(Cc2cccc3ccccc23)nc(NCc2ccccc2)[nH]c1=O | ROD |  | MTT | >33.48 µM
CCc1c(Sc2ccccc2)nc(SCC(=O)c2ccc(OC)cc2)[nH]c1=O | ROD |  | cytopathic effect / MTT | >181 µM
Cc1cn([C@H]2C=C[C@@H](COP(=O)(O)N(CC(=O)O)CC(=O)O)O2)c(=O)[nH]c1=O | ROD |  | MTT | 0.21 µM
Cc1cn([C@H]2C[C@H](N=[N+]=[N-])[C@@H](COC(=O)CCC(=O)OC[C@H]3O[C@@H]4O[C@H]5[C@H](O)[C@@H](O)[C@@H](O[C@H]6[C@H](O)[C@@H](O)[C@@H](O[C@H]7[C@H](O)[C@@H](O)[C@@H](O[C@H]8[C@H](O)[C@@H](O)[C@@H](O[C@H]9[C@H](O)[C@@H](O)[C@@H](O[C@H]%10[C@H](O)[C@@H](O)[C@@H](O[C@H]3[C@H](O)[C@H]4O)O[C@@H]%10CO)O[C@@H]9CO)O[C@@H]8CO)O[C@@H]7CO)O[C@@H]6CO)O[C@@H]5CO)O2)c(=O)[nH]c1=O | ROD |  | cytopathic effect / MTT | 0.102 µg/mL
CC(C)(C)NC(=O)[C@@H]1C[C@@H]2CCCC[C@@H]2CN1CC(O)[C@H](Cc1ccccc1)NC(=O)[C@H](CC(N)=O)NC(=O)c1ccc2ccccc2n1.CS(=O)(=O)O | EHO |  | MTT / p24 | 0.0058 µM
Cc1cc(C)cc(C(=O)c2cccnc2Oc2ccc(C(=O)O)cc2)c1 | ROD |  | MTT | >150 µM
Cc1cc(C#Cc2ccccc2)cc(C)c1Oc1ccnc(Nc2ccc(C#N)cc2)n1 | ROD |  | MTT | >3.29 µM
Cc1cnc(Nc2ccc(C#N)cc2)nc1C(O)c1ccc2ccccc2c1 | ROD |  | MTT | >6.1 µM
Cc1cn([C@@H]2O[C@H](CO[Si](C)(C)C(C)(C)C)C3(OS(=O)(=O)C=C3N)[C@H]2O[Si](C)(C)C(C)(C)C)c(=O)n(C)c1=O | ROD |  |  | >200 µM
Cc1cn([C@@H]2O[C@H](CO[Si](C)(C)C(C)(C)C)C3(OS(=O)(=O)C=C3N)[C@H]2O[Si](C)(C)C(C)(C)C)c(=O)n(C)c1=O | ROD |  | cytopathic effect / trypan blue | >50 µM
Cc1cc(C)cc(C(=O)c2cccnc2Nc2ccncc2)c1 | ROD |  | MTT | >32.34 µM
CN(C)c1ccc(C2SCC(=O)N2c2ccccn2)cc1 | ROD |  | cytopathic effect | 81.5 µM
C[C@H](Cn1cnc2c(N)ncnc21)OCP(=O)(O)O | ROD |  |  | 4.9 µM
COc1nc(=O)[nH]c2c1C(c1ccc([N+](=O)[O-])cc1)c1c(OC)nc(=O)[nH]c1O2 | EHO |  | cytopathic effect | >313 µM
Cc1cn([C@@H]2O[C@H](CO[Si](C)(C)C(C)(C)C)[C@@H](O)[C@H]2O[Si](C)(C)C(C)(C)C)c(=O)n(CCO)c1=O | ROD |  | cytopathic effect / trypan blue | 40 µM
Cc1cc(C#Cc2cccc(N)c2)cc(C)c1Oc1ccnc(NC2CCN(c3cccc(C(N)=O)c3)CC2)n1 | ROD |  | MTT | >1.063 µM
CCN(CC)c1nc(Cc2cccc3ccccc23)c(C)c(=O)[nH]1 | ROD |  | MTT | >388.9 µM
COc1cc(NC(C)CCCN)c2ncccc2c1 | ROD |  | MTT | >100 µM
CCn1nc(Cn2cc(C)c(=O)[nH]c2=O)nc1C | ROD |  |  | >68 µg/mL

Repeating the first 9 entries:

{"compound": "COc1ncccc1C(=O)c1cc(C)cc(C)c1", "strain or isolate": "ROD", "read by": "MTT", "value": ">7.34 µM"}
{"compound": "Cc1cn([C@@H]2O[C@H](CO[Si](C)(C)C(C)(C)C)C3(OC(=O)N=C3N)[C@H]2O[Si](C)(C)C(C)(C)C)c(=O)[nH]c1=O", "strain or isolate": "ROD", "value": ">35 µM"}
{"compound": "Cc1c(Cc2cccc3ccccc23)nc(N2CC2)[nH]c1=O", "strain or isolate": "ROD", "read by": "MTT", "value": "351 µM"}
{"compound": "O=c1[nH]cnc2c1ncn2[C@H]1CC[C@@H](CO)O1", "strain or isolate": "ROD", "read by": "MTT", "value": "19 µM"}
{"compound": "CC(C)(C)[Si](C)(C)OC[C@H]1O[C@@H](n2cnc3c(=O)n(CC(=O)O)cnc32)[C@H](O[Si](C)(C)C(C)(C)C)[C@@H]1O", "strain or isolate": "ROD", "read by": "cytopathic effect / trypan blue", "value": "24 µM"}
{"compound": "O=C1CSC(c2c(F)cccc2Cl)N1Cc1ccco1", "strain or isolate": "ROD", "read by": "cytopathic effect", "value": "30.5 µM"}
{"compound": "Cc1cn([C@@H]2O[C@H](CC3CCCCC3)C3(OS(=O)(=O)C=C3N)[C@H]2O[Si](C)(C)C(C)(C)C)c(=O)[nH]c1=O", "strain or isolate": "ROD", "read by": "cytopathic effect / trypan blue", "value": ">4 µg/mL"}
{"compound": "Cc1c(Sc2ccccc2)n(COCCO)c(=O)[nH]c1=O", "strain or isolate": "ROD", "read by": "cytopathic effect / MTT", "value": ">405.8 µM"}
{"compound": "CCN(C)C(=O)Oc1nsnc1-c1c(Cl)cccc1Cl", "strain or isolate": "EHO", "read by": "MTT", "value": ">29 µM"}

ECn: concentration that inhibits the pathogen or its effect by n%. Blank or dashed fields: not listed here.